Reference: paper PMC12023841, “Unlocking the Gates: A Novel Diagnostic Molecule for Quantifying Efflux Levels in Gram‐Positive Bacteria” (Advanced Healthcare Materials, 2025)
Several values for one entry are separate records, joined by “and”; a condition that tells them apart may be missing. Equal values may be shown once.

Test system: HaCaT keratinocytes cells
Test: In-vitro cytotoxicity test, Neutral Red uptake
Assay type: cell-based, Human
Details: 24 hours
Method: Method: The in-vitro cytotoxicity test assessed cell viability based on Neutral Red uptake, a dye that accumulates in lysosomes and decreases in response to membrane damage. HaCaT keratinocytes were cultured in DMEM with 10% calf serum and incubated at 37°C, 5% CO₂. Cells were seeded in 96-well plates, treated with eight concentrations of the 5a4, and incubated for 24 hours. After washing, cells were exposed to Neutral Red medium for 3 hours, followed by washing and destaining. Optical density (OD540) was measured using a fluorescence reader, and IC50 values were calculated using Phototox Version 2.0, comparing treated wells to untreated controls.^[10]

## CCCCNc1ccc2nc3cc(NCCOC)c(N)cc3[n+](CCC)c2c1 [5a4]
0.00025 µg/ml
  Optical Densities (OD540), replicates n=3: 0.67 and 0.666 and 0.648
0.0005 µg/ml
  Optical Densities (OD540), replicates n=3: 0.671 and 0.658 and 0.633
0.001 µg/ml
  Optical Densities (OD540), replicates n=3: 0.598 and 0.584 and 0.579
0.025 µg/ml
  Optical Densities (OD540), replicates n=3: 0.552 and 0.548 and 0.597
0.05 µg/ml
  Optical Densities (OD540), replicates n=3: 0.468 and 0.492 and 0.458
0.1 µg/ml
  Optical Densities (OD540), replicates n=3: 0.413 and 0.425 and 0.426
0.25 µg/ml
  Optical Densities (OD540), replicates n=3: 0.323 and 0.319 and 0.325
0.5 µg/ml
  Optical Densities (OD540), replicates n=3: 0.284 and 0.274 and 0.289
1 µg/ml
  Optical Densities (OD540), replicates n=3: 0.123 and 0.101 and 0.134
2.5 µg/ml
  Optical Densities (OD540), replicates n=3: 0.095 and 0.1 and 0.098
